Results of unrelated studies side by side (data: NIAID ChemDB).

All rows: whole-cell or culture tests; organism: Candida albicans; endpoint: MIC

Rows are shuffled and stem from different studies. a–b is a range or a potency band. An empty or dashed field is not shown.

CCC(C)CC(C)CCCCCCCCC(=O)N[C@H]1C[C@@H](O)[C@H](NCCN)NC(=O)[C@@H]2[C@@H](O)CCN2C(=O)[C@H]([C@H](O)CCN)NC(=O)[C@H]([C@H](O)[C@@H](O)c2ccc(O)cc2)NC(=O)[C@@H]2C[C@@H](O)CN2C(=O)[C@H]([C@@H](C)O)NC1=O ; strain or isolate: 90028 ; result: 0.03 µg/mL
COc1ccc(/C=N/NC(=O)c2nnn(-c3ccnc4c(C(F)(F)F)cccc34)c2C)cc1 ; result: 6 µg/mL
CNc1ccc(C(=O)CC(O)CCC(C)C2OC(=O)CC(O)CC(=O)CC(O)CC(O)CC(O)CC(O)CC3(O)CC(O)C(C(=O)N4CCN(C)CC4)C(CC(O[C@@H]4O[C@H](C)[C@@H](O)[C@H](NC(=O)CN5CCN(C)CC5)[C@@H]4O)/C=C/C=C/C=C/C=C\C=C/C=C/C=C/C2C)O3)cc1 ; strain or isolate: 200 ; result: 0.03 µg/mL
CCCCCCCCCCCCCSc1cc(C(N)=S)ccn1 ; strain or isolate: 3a ; result: 100 µg/mL
C[C@@H]1CC[C@H](O)[C@@](C)(O)[C@@]1(C)CCc1ccc2c(c1)C(=O)C=CC2=O ; result: 6 µg/mL
CCC(C)CC(C)CCCCCCCCC(=O)N[C@H]1C[C@@H](O)[C@H](NCCN)NC(=O)[C@@H]2[C@@H](O)CCN2C(=O)[C@H]([C@H](O)CCN)NC(=O)[C@H]([C@H](O)[C@@H](O)c2ccc(O)cc2)NC(=O)[C@@H]2C[C@@H](O)CN2C(=O)[C@H]([C@@H](C)O)NC1=O ; strain or isolate: 10 isolates azole-resistant ; result: 0.4 µg/mL
Cc1cc(O)c(C(C)C)cc1N1CCCCC1 ; strain or isolate: ATCC 36232 ; result: >143 µg/mL
C[C@H]1[C@H](O)[C@@H](C)/C=C/C=C/C=C/C=C/C=C/C=C/C=C/[C@H](O[C@@H]2O[C@H](C)[C@@H](O)[C@H](N)[C@@H]2O)C[C@@H]2O[C@](O)(C[C@@H](O)C[C@@H](O)CC[C@H](O)[C@@H](O)C[C@@H](O)CC(=O)O[C@H]1C)C[C@H](O)[C@H]2C(=O)O ; strain or isolate: ATCC 10231 ; result: 5 µg/mL
Cc1c(C(=O)/C=C/c2ccc([N+](=O)[O-])cc2)nnn1-c1ccnc2c(C(F)(F)F)cccc12 ; result: 12.5 µg/mL
Clc1ccc(COC(Cn2ccnc2)c2ccc(Cl)cc2Cl)c(Cl)c1 ; strain or isolate: ATCC 10231 ; result: 6 µg/mL
CC(=O)OC1C(=O)N(c2ccccc2)C1c1ccccc1 ; strain or isolate: SH/T54 ; result: 356 µM
CC#CC#CC#Cc1ccccc1 ; result: 12.5–50 µg/mL
CC(=O)c1c(O)n(Cc2ccccc2)c(-c2ccccc2)nc1=S ; result: >100 µg/mL
O=C1C(O)C(c2cccc3ccccc23)N1c1ccc(Br)cc1 ; strain or isolate: SH/T54 ; result: 154 µM
COc1cc(O)c2c(c1)C(=O)c1c(cc3c(c1O)-c1c(cc(C)c(C(=O)NC(C)C(=O)O)c1O)[C@H](OC1OC(C)C(N(C)C(=O)C(CO)(CO)CO)C(OC4OCC(O)C(O)C4O)C1O)[C@H]3O)C2=O ; strain or isolate: A9540 ; result: >100 µg/mL
CCOC(=O)C1CC([C@H]2O[C@@H]3OC(C)(C)O[C@@H]3[C@H]2OC)=NO1 ; result: >50 µg/mL
O=C(N/N=C/c1ccc([N+](=O)[O-])o1)N1CCOCC1 ; result: 100 µg/mL
COc1cc(O)c2c(c1)C(=O)c1c(cc3c(c1O)-c1c(cc(C)c(C(=O)NC(C)C(=O)O)c1O)[C@H](OC1OC(C)C(N(C)C(=O)c4ccccc4)C(OC4OCC(O)C(O)C4O)C1O)[C@H]3O)C2=O ; strain or isolate: A9540 ; result: >100 µg/mL
CS(C)=O ; strain or isolate: CA6 ; result: 250 µg/mL
CCC(C)n1ncn(-c2ccc(N3CCN(c4ccc(OC[C@H]5CO[C@](Cn6cncn6)(c6ccc(Cl)cc6Cl)O5)cc4)CC3)cc2)c1=O ; strain or isolate: SGY-243 ; result: 0.004 µg/mL
O=C(Nc1nc2ccc(NC(=O)[C@@H]3CCC[C@@H](NCc4ccc5ccccc5c4)C3)cc2s1)C1CCC1 ; result: 1.56 µM
CCOC1CC([C@H]2O[C@@H]3OC(C)(C)O[C@@H]3[C@H]2OC)=NO1 ; result: >50 µg/mL
CCOC(=O)c1c(O)n(CCO)c(-c2ccccc2)nc1=S ; result: 100 µg/mL
CCN(CC)C(=S)N/N=C/c1ccc([N+](=O)[O-])o1 ; result: 40 µg/mL
CC1(C)O[C@H]2[C@@H](O1)[C@@H](C1=NOC(Cc3ccc(O)cc3)C1)O[C@@H]1OC(C)(C)O[C@@H]12 ; result: >50 µg/mL
CSc1cc(C(N)=S)ccn1 ; strain or isolate: 3a ; result: 200 µg/mL
CO[C@@H]1[C@H]2OC(C)(C)O[C@H]2O[C@@H]1C1=NOC(C#N)C1 ; result: >50 µg/mL
CCCCC[C@@H]1OCO[C@@]2(C)/C=C(C)/C=C/C(=O)O[C@H]([C@@H](C)[C@@H](O)[C@H](C)[C@@]3(O)C[C@@H](O[C@H]4C[C@@H](O)[C@H](O)[C@@H](C)O4)[C@H](C)[C@@H](C)O3)[C@@H](OC)/C=C/C=C(\C)C[C@H]1[C@@H]2O ; strain or isolate: 3147 ; result: 100 µg/mL
O=C(N/N=C/c1ccc([N+](=O)[O-])o1)N1CCCC1 ; result: 100 µg/mL
CNC1C(C)OC(O[C@H]2c3cc(C)c(C(=O)N[C@H](C)C(=O)N[C@H](C)C(=O)O)c(O)c3-c3c(cc4c(c3O)C(=O)c3cc(OC)cc(O)c3C4=O)[C@@H]2O)C(O)C1OC1OCC(O)C(O)C1O ; strain or isolate: A9540 ; result: 25 µg/mL
c1ccc(-c2ccc(C(c3ccccc3)n3ccnc3)cc2)cc1 ; strain or isolate: ATCC 10231 ; result: 10 µg/mL
CCCCOC1Oc2ccc(C(Cn3ccnc3)OCc3ccc(Cl)cc3)cc2N(C)C1=O ; strain or isolate: CA6 ; result: 125 µg/mL
O=C(CCNCc1ccc(-c2ccccc2)cc1)Nc1ccc2nc(NC(=O)C3CCCC3)sc2c1 ; result: 6.25 µM
COc1cc(O)c2c(c1)C(=O)c1c(cc3c(c1O)-c1c(cc(C)c(C(=O)NC(C)C(=O)O)c1O)[C@H](OC1OC(C)C(N(C)CC(=O)O)C(OC4OCC(O)C(O)C4O)C1O)[C@H]3O)C2=O ; strain or isolate: A9540 ; result: 6.3 µg/mL
COC1=C(C(C)C)C(=O)C2=C(C1=O)C1(C)CCCC(C)(C)C1=CC2OC(C)=O ; result: 9.72 µg/mL
CN1C(=O)CSc2ccc(C(Cn3ccnc3)OCc3ccc(Cl)cc3)cc21 ; strain or isolate: CA6 ; result: <0.18 µg/mL
CC(=O)OC1C(=O)N(c2ccccc2)C1c1ccc([N+](=O)[O-])cc1 ; strain or isolate: SH/T54 ; result: 18.4 µM
NC(=S)c1ccnc(SC2CCCCC2)c1 ; strain or isolate: 176 ; result: 100 µg/mL
CC(=O)c1c(O)n(CCO)c(-c2ccccc2)nc1=S ; result: >100 µg/mL
Cc1c(C(=O)/C=C/c2ccc(Cl)cc2)nnn1-c1ccnc2c(C(F)(F)F)cccc12 ; result: 12.5 µg/mL
Clc1ccc(COC(Cn2ccnc2)c2ccc(Cl)cc2Cl)c(Cl)c1 ; strain or isolate: ATCC 10231 ; result: 5 µg/mL
COC(=O)c1ccc(N2C(=O)C(OC(C)=O)C2c2ccc(OC)cc2)cc1 ; strain or isolate: SH/T54 ; result: 16.26 µM
O=[N+]([O-])c1ccc(/C=N/NC(=S)N2CCCCC2)o1 ; result: 40 µg/mL
Cc1c(NC(=O)CSc2nnc(-c3ccco3)n2-c2ccc(Cl)cc2)c(=O)n(-c2ccccc2)n1C ; strain or isolate: ATCC 10231 ; result: 16 µg/mL
Nc1[nH]c(=O)ncc1F ; strain or isolate: 2718 ; result: 0.13 µg/mL
O=C1C(O)C(c2ccccc2)N1c1ccccc1 ; strain or isolate: SH/T54 ; result: 52.29 µM
CNc1ccc(C(=O)CC(O)CCC(C)C2OC(=O)CC(O)CC(=O)CC(O)CC(O)CC(O)CC(O)CC3(O)CC(O)C(C(=O)N4CCN(C)CC4)C(CC(O[C@@H]4O[C@H](C)[C@@H](O)[C@H](NC(=O)CCN5CCCCC5)[C@@H]4O)/C=C/C=C/C=C/C=C\C=C/C=C/C=C/C2C)O3)cc1 ; strain or isolate: 200 ; result: 0.12 µg/mL
Cc1c(NC(=O)CSc2nnc(-c3ccco3)n2C2CCCCC2)c(=O)n(-c2ccccc2)n1C ; strain or isolate: ATCC 10231 ; result: 16 µg/mL
O=C(Nc1nc2ccc(NC(=O)[C@H]3CC[C@@H](NCc4ccc5ccccc5c4)C3)cc2s1)C1CCCC1 ; result: >12.5 µM
CNC1C(C)OC(O[C@H]2c3cc(C)c(C(=O)N[C@H](C)C(=O)N[C@@H](CC(=O)O)C(=O)O)c(O)c3-c3c(cc4c(c3O)C(=O)c3cc(OC)cc(O)c3C4=O)[C@@H]2O)C(O)C1OC1OCC(O)C(O)C1O ; strain or isolate: A9540 ; result: >100 µg/mL
CN1C(C(=O)Nc2nccs2)=C(O)c2ccccc2S1(=O)=O ; strain or isolate: 1760 ; result: 1000 µg/mL
Cc1c(O)cccc1C(=O)N[C@@H](CSc1ccccc1)[C@H](O)CN1C[C@H]2CCCC[C@H]2C[C@H]1C(=O)NC(C)(C)C ; strain or isolate: I78A ; result: >64 µg/mL
COc1cc(/C=C/C(=O)c2nnn(-c3ccnc4c(C(F)(F)F)cccc34)c2C)c([N+](=O)[O-])cc1OC ; result: 25 µg/mL
COc1cc(O)c2c(c1)C(=O)c1c(cc3c(c1O)-c1c(cc(C)c(C(=O)NC(C)C(=O)O)c1O)[C@H](OC1OC(C)C(N(C)C=O)C(OC4OCC(O)C(O)C4O)C1O)[C@H]3O)C2=O ; strain or isolate: A9540 ; result: 3.1 µg/mL
O=C(Nc1nc2ccc(NC(=O)[C@H]3CCC[C@H](NCc4ccc5ccccc5c4)C3)cc2s1)C1CCCC1 ; result: 6.25 µM
Cc1c(NC(=O)C(C)Sc2nnc(-c3ccco3)n2-c2ccc(Cl)cc2)c(=O)n(-c2ccccc2)n1C ; strain or isolate: ATCC 10231 ; result: 16 µg/mL
O=C(Nc1nc2ccc(NC(=O)[C@@H]3CCC[C@H](NCc4cccc5ccccc45)C3)cc2s1)C1CCCC1 ; result: 0.78 µM
CNC1C(C)OC(O[C@H]2c3cc(C)c(C(=O)N[C@H](C)C(=O)NCC(=O)O)c(O)c3-c3c(cc4c(c3O)C(=O)c3cc(OC)cc(O)c3C4=O)[C@@H]2O)C(O)C1OC1OCC(O)C(O)C1O ; strain or isolate: A9540 ; result: >50 µg/mL
CNc1ccc(C(=O)CC(O)CCC(C)C2OC(=O)CC(O)CC(=O)CC(O)CC(O)CC(O)CC(O)CC3(O)CC(O)C(C(=O)N4CCN(CCO)CC4)C(CC(O[C@@H]4O[C@H](C)[C@@H](O)[C@H](NC(=O)CN5CCN(CCO)CC5)[C@@H]4O)/C=C/C=C/C=C/C=C\C=C/C=C/C=C/C2C)O3)cc1 ; strain or isolate: 200 ; result: 0.12 µg/mL
CNC1C(C)OC(O[C@H]2c3cc(C)c(C(=O)N[C@H](C)C(=O)OC)c(O)c3-c3c(cc4c(c3O)C(=O)c3cc(OC)cc(O)c3C4=O)[C@@H]2O)C(O)C1OC1OCC(O)C(O)C1O ; strain or isolate: A9540 ; result: >100 µg/mL
Cc1ccc(-n2c(SC(C)C(=O)Nc3c(C)n(C)n(-c4ccccc4)c3=O)nnc2-c2ccco2)cc1 ; strain or isolate: ATCC 10231 ; result: 32 µg/mL
Cc1c(C(=O)N/N=C/c2ccc(Cl)cc2)nnn1-c1ccnc2c(C(F)(F)F)cccc12 ; result: 12.5 µg/mL

Again, the opening 6 rows:

structure | strain or isolate | result
CCC(C)CC(C)CCCCCCCCC(=O)N[C@H]1C[C@@H](O)[C@H](NCCN)NC(=O)[C@@H]2[C@@H](O)CCN2C(=O)[C@H]([C@H](O)CCN)NC(=O)[C@H]([C@H](O)[C@@H](O)c2ccc(O)cc2)NC(=O)[C@@H]2C[C@@H](O)CN2C(=O)[C@H]([C@@H](C)O)NC1=O | 90028 | 0.03 µg/mL
COc1ccc(/C=N/NC(=O)c2nnn(-c3ccnc4c(C(F)(F)F)cccc34)c2C)cc1 |  | 6 µg/mL
CNc1ccc(C(=O)CC(O)CCC(C)C2OC(=O)CC(O)CC(=O)CC(O)CC(O)CC(O)CC(O)CC3(O)CC(O)C(C(=O)N4CCN(C)CC4)C(CC(O[C@@H]4O[C@H](C)[C@@H](O)[C@H](NC(=O)CN5CCN(C)CC5)[C@@H]4O)/C=C/C=C/C=C/C=C\C=C/C=C/C=C/C2C)O3)cc1 | 200 | 0.03 µg/mL
CCCCCCCCCCCCCSc1cc(C(N)=S)ccn1 | 3a | 100 µg/mL
C[C@@H]1CC[C@H](O)[C@@](C)(O)[C@@]1(C)CCc1ccc2c(c1)C(=O)C=CC2=O |  | 6 µg/mL
CCC(C)CC(C)CCCCCCCCC(=O)N[C@H]1C[C@@H](O)[C@H](NCCN)NC(=O)[C@@H]2[C@@H](O)CCN2C(=O)[C@H]([C@H](O)CCN)NC(=O)[C@H]([C@H](O)[C@@H](O)c2ccc(O)cc2)NC(=O)[C@@H]2C[C@@H](O)CN2C(=O)[C@H]([C@@H](C)O)NC1=O | 10 isolates azole-resistant | 0.4 µg/mL